Pooled drug test results. Numbers come from NIAID ChemDB, via PubChem.

Common to all: whole-cell or culture tests; organism: Varicella zoster virus; read by: plaque count; measure: EC50

Two numbers with a dash give a range or band.

compound,cells,strain,value
Nc1nccc2c1ncn2C[C@@H](CO)OCP(=O)(O)O,HEL,13 isolates,0.15 µM
Nc1nc(Cl)c2nnn(C[C@H]3CC[C@@H](CO)C3)c2n1,HEL,07/1 (TK-),>50 µg/mL
Nc1ncc2c(ncn2COC(CO)CO)n1,HEL,13 isolates,0.11 µM
Nc1nc(N)c2nnn(C[C@H]3CC[C@@H](CO)C3)c2n1,HEL,07/1 (TK-),>50 µg/mL
Nc1ncnc2c1ncn2C[C@H]1COP(=O)(O)CO1,HEL,YS (TK+),0.43 µM
Nc1ncnc2c1ncn2C[C@@H](CO)OCP(=O)(O)O,HEL,PFA-resistant/A,0.048 µg/mL
CCCCCCCCCC(=O)O[C@H]1C[C@H](n2cc(/C=C/Br)c(=O)[nH]c2=O)O[C@@H]1COP1(=O)OCc2cccc(C)c2O1,HELF,OKA,0.046 µg/mL
O=C(O)P(=O)(O)O,HEL,OKA,12 µg/mL
CC1OP(=O)(OC[C@H]2O[C@@H](n3cc(/C=C/Br)c(=O)[nH]c3=O)C[C@@H]2O)Oc2cccc(Cl)c21,HELF,OKA,0.02 µg/mL
Nc1nc2c(nnn2C[C@H]2CC[C@@H](CO)C2)c(=O)[nH]1,HEL,OKA,>200 µg/mL
CC(=O)O[C@H]1C[C@H](n2cc(/C=C/Br)c(=O)[nH]c2=O)O[C@@H]1COP1(=O)OCc2ccccc2O1,HELF,OKA,0.006 µg/mL
Nc1ccn(C[C@H]2COP(=O)(O)CO2)c(=O)n1,HEL,OKA (TK+),0.64 µM
Nc1nc2c(ncn2[C@H]2C=C[C@@H](CO)CC2)c(=O)[nH]1,HEL,YS (TK+),0.12 µg/mL
Cc1cn([C@@H]2O[C@H](CO)[C@@H](O)[C@@H]2O)c(=O)[nH]c1=O,HEL,07/1 (TK-),114.3 µM
Nc1nc(Cl)c2ncn(C[C@H]3CC[C@@H](CO)C3)c2n1,HEL,YS,>20 µg/mL
Cc1cccc2c1OP(=O)(OC[C@H]1O[C@@H](n3cc(/C=C/Br)c(=O)[nH]c3=O)C[C@@H]1OC(=O)[C@H](N)C(C)C)OC2,HELF,OKA,0.027 µg/mL
O=c1[nH]c(=O)n([C@H]2C[C@H](O)[C@@H](CO)O2)cc1/C=C/Br,HEL,YS,0.0008 µg/mL
O=c1[nH]c(=O)n([C@H]2C[C@H](O)[C@@H](CO)O2)cc1-c1ccc(Cl)s1,HEL,07/1 (TK-),>58 µM
Nc1nc(N)c2ncn(CCOCP(=O)(O)O)c2n1,HEL,YS,4.5 µM
O=c1[nH]c(=O)n([C@H]2C[C@H](O)[C@@H](COP3(=O)OCc4c(Cl)cccc4O3)O2)cc1/C=C/Br,HELF,OKA,0.011 µg/mL
Nc1ccn(C[C@@H](CO)OCP(=O)(O)O)c(=O)n1,HEL,PMEA-resistant,0.24 µg/mL
Nc1nc2c(ncn2[C@@H]2O[C@H](CO)[C@H]2CO)c(=O)[nH]1,HEL,OKA (TK+),0.23 µM
Nc1cc(OCCOCP(=O)(O)O)nc(N)n1,HEL,YS,3.9 µM
Nc1nc2c(ncn2[C@@H]2C=C[C@H](CO)CC2)c(=O)[nH]1,-,-,1–10 µM
Nc1nc2c(ncn2COC(CO)CO)c(=O)[nH]1,HEL,YS,3.5 µM
Nc1nc2c(ncn2COC(CO)CO)c(=O)[nH]1,HEL,BVDU-resistant,1.5 µg/mL
Nc1ncnc2c1ncn2[C@@H]1O[C@H](CO)[C@H]1CO,HEL,13 isolates,4.6 µM
C[C@H](Cn1cnc2c(N)ncnc21)OCP(=O)(O)O,HEL,YS,>50 µM

For reference, 3 entries again:

{"compound": "O=c1[nH]c(=O)n([C@H]2C[C@H](O)[C@@H](COP3(=O)OCc4c(Cl)cccc4O3)O2)cc1/C=C/Br", "cells": "HELF", "strain": "OKA", "value": "0.011 µg/mL"}
{"compound": "Nc1nc2c(ncn2COC(CO)CO)c(=O)[nH]1", "cells": "HEL", "strain": "BVDU-resistant", "value": "1.5 µg/mL"}
{"compound": "Cc1cccc2c1OP(=O)(OC[C@H]1O[C@@H](n3cc(/C=C/Br)c(=O)[nH]c3=O)C[C@@H]1OC(=O)[C@H](N)C(C)C)OC2", "cells": "HELF", "strain": "OKA", "value": "0.027 µg/mL"}

ECn is the concentration giving n% inhibition of infection, replication or growth. Neighbouring rows are from separate reports. An empty or dashed field is not shown.